Laboratory results: PubChem BioAssay AID1224833 (University of Georgia, 2016)
Test: 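Human genes whose knock-down alters rotavirus replication in monkey cells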 (primary screen). Cells: monkey MA104 kidney cells. Knock-down reagent: siRNA pool against human genes, 50 nM. Timing: 48 h knock-down before infection; read 24 h after infection. Conditions: infection with rotavirus strain RV3 two days after transfection; infectious dose for this stage not given. Measurement: 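Rotavirus antigen per well by fluorescent immunoassay, normalised to non-targeting control wells on each plate and given as a standard z-score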. Scale: z-score vs non-targeting control: higher = more rotavirus replication than with non-targeting control. Rule for the call: In these data the active calls have z-score vs non-targeting control at about -1 or lower, or at about 1 or higher. Calls: active = z-score beyond 1 either way; inactive = z-score within 1 of zero.
Here is an unselected part of about 12,000 deposited reagents. Of all reagents, about 5,600 (46%) are marked active. 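Active calls cover z-scores past 1 in both directions, so they include lowered as well as raised rotavirus replication.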 Unmarked entries are inactive.

The opening 4 records, ahead of the listing:
| gene | z-score vs non-targeting control |
| --- | --- |
| SPICE1 (spindle and centriole associated protein 1) | -2.08 (active) |
| STRC (stereocilin) | -0.279 |
| EIF4A3 (eukaryotic translation initiation factor 4A3) | 1.25 (active) |
| SORCS2 (sortilin related VPS10 domain containing receptor 2) | -1.22 (active) |

Results, repeating the preview:
| gene | z-score vs non-targeting control |
| --- | --- |
| SPICE1 (spindle and centriole associated protein 1) | -2.08 (active) |
| STRC (stereocilin) | -0.279 |
| EIF4A3 (eukaryotic translation initiation factor 4A3) | 1.25 (active) |
| SORCS2 (sortilin related VPS10 domain containing receptor 2) | -1.22 (active) |
| RALGAPB (Ral GTPase activating protein non-catalytic subunit beta) | 1.22 (active) |
| RANGRF (RAN guanine nucleotide release factor) | -1.11 (active) |
| WDR37 (WD repeat domain 37) | -1.6 (active) |
| NXPE1 (neurexophilin and PC-esterase domain family member 1) | -1.29 (active) |
| ZNF385A (zinc finger protein 385A) | -0.987 |
| CCNY (cyclin Y) | 1.7 (active) |
| OR2T34 (olfactory receptor family 2 subfamily T member 34) | -1.11 (active) |
| CDH24 (cadherin 24) | 0.0382 |
| TRERF1 (transcriptional regulating factor 1) | -1.54 (active) |
| DEPTOR (DEP domain containing MTOR interacting protein) | -0.27 |
| ARMC6 (armadillo repeat containing 6) | 0.622 |
| SLC13A4 | 1.56 (active) |
| CER1 (cerberus 1, DAN family BMP antagonist) | 0.131 |
| SLC7A9 | 1.09 (active) |
| MRPS34 (mitochondrial ribosomal protein S34) | -1.95 (active) |
| ELMO1 (engulfment and cell motility 1) | 0.182 |
| GPR15LG (G protein-coupled receptor 15 ligand) | 1.66 (active) |
| TNFAIP8 (TNF alpha induced protein 8) | 0.887 |
| EIF3A (eukaryotic translation initiation factor 3 subunit A) | 0.659 |
| NYNRIN (NYN domain and retroviral integrase containing) | -0.613 |
| PNMA2 (PNMA family member 2) | -1.09 (active) |
| SLC4A4 | -1.68 (active) |
| BANK1 (B cell scaffold protein with ankyrin repeats 1) | 0.209 |
| MAP6D1 (MAP6 domain containing 1) | 1.27 (active) |
| APOE (apolipoprotein E) | 2.11 (active) |
| GTSE1 (G2 and S-phase expressed 1) | -0.918 |
| C1QTNF8 (C1q and TNF related 8) | -1.25 (active) |
| HDAC8 (histone deacetylase 8) | -1.85 (active) |
| ZNF354A (zinc finger protein 354A) | -2.65 (active) |
| SPATA13 (spermatogenesis associated 13) | -0.895 |
| SP4 (Sp4 transcription factor) | -2 (active) |
| CALHM1 (calcium homeostasis modulator 1) | -2.08 (active) |
| GSTA2 (glutathione S-transferase alpha 2) | 1.75 (active) |
| LRIT3 (leucine rich repeat, Ig-like and transmembrane domains 3) | 3.44 (active) |
| PCDHB16 (protocadherin beta 16) | -0.856 |
| MYL1 (myosin light chain 1) | -2.08 (active) |
| FUBP1 (far upstream element binding protein 1) | -0.647 |
| KCNG2 | -0.249 |
| KHNYN (KH and NYN domain containing) | -2.42 (active) |
| PTGIS (prostaglandin I2 synthase) | 0.613 |
| CETN3 (centrin 3) | -1.03 (active) |
